Pooled drug test results. Numbers come from NIAID ChemDB, via PubChem.

Common to all: target-level tests; agent: HIV; protein: Reverse transcriptase; read-out: IC50

ICn: concentration for n% inhibition.

compound	changes	read by	value
Cc1c(C(C)c2c(F)cccc2F)nc(NC2CCCC2)[nH]c1=O	RT-V106A	nucleotide incorporation / radiometric	0.5 µM
COc1ccc2c(c1)N(C(=O)OC(C)C)[C@@H](CSC)C(=S)N2	RT-D67N K70R T215F K219Q	RT activity	0.006 µg/mL
CC(C)Nc1cccnc1N1CCN(C(=O)c2cc3cc4c(cc3[nH]2)OCO4)CC1	RT-Y181C P236L	-	>50 µM
Cc1cn([C@@H]2O[C@H](CO[Si](C)(C)C(C)(C)C)C3(OS(=O)(=O)C=C3N)[C@H]2O[Si](C)(C)C(C)(C)C)c(=O)n(C)c1=O	RT-E138K	nucleotide incorporation	>750 µM
Cc1cc(C)cc([C@]23SCCN2C(=O)c2ccccc23)c1	RT-K101A	ELISA	4.8 µM
O=c1[nH]cnc2c1ncn2[C@H]1CC[C@@H](CO)O1	RT-L74V	RT activity	2.9 µM
CCc1c(Sc2ccccn2)n(COCc2ccccc2)c(=O)[nH]c1=O	RT-V90A	RT activity	0.07 µM
Cc1cc(C)cc(Sc2c(C(C)C)c(=O)[nH]c(=S)n2COCCO)c1	RT-E138K	nucleotide incorporation	29.9 µM
CC(C)=CCN1Cc2cccc3[nH]c(=S)n(c23)C[C@@H]1C	-	nucleotide incorporation	3.83 µM
O=C1c2ccccc2C2(c3ccccc3)SCCN12	RT-Y188L	ELISA	>200 µM
NS(=O)(=O)c1ccc(CCNC(=O)Cc2cccs2)cc1	K103N/L1001	nucleotide incorporation	5.8 µM
C#C[C@]1(COP(=O)(O)OP(=O)(O)OP(=O)(O)O)CC[C@@H](n2ccc(N)nc2=O)O1	-	nucleotide incorporation / radiometric	0.2 µM
Cc1cn([C@H]2C=C[C@]3(COP(=O)(O)OP(=O)(O)OP(=O)(O)O)C[C@H]23)c(=O)[nH]c1=O	-	nucleotide incorporation / radiometric	>0.5 µM
Cc1cn([C@@H]2O[C@H](CO[Si](C)(C)C(C)(C)C)C3(OS(=O)(=O)C=C3N)[C@H]2O[Si](C)(C)C(C)(C)C)c(=O)n(C)c1=O	RT-N137Q	nucleotide incorporation / radiometric	0.8 µM
CO[P@](=O)(c1cc(C)cc(/C=C/C#N)c1)c1c(C(N)=O)[nH]c2ccc(Cl)c(F)c12	V106M	-	0.23 µM
CC(C)=CCN1Cc2cccc3[nH]c(=S)n(c23)C[C@@H]1C	RT-E138K	nucleotide incorporation	4.8 µM
Nc1ncnc2c1ncn2[C@H]1CC[C@@H](COP(=O)(O)OP(=O)(O)OP(=O)(O)O)O1	-	-	0.18 µM
Cc1cn([C@@H]2O[C@H](CO[Si](C)(C)C(C)(C)C)[C@@]3(OS(=O)(=O)C=C3N)[C@H]2O[Si](C)(C)C(C)(C)C)c(=O)[nH]c1=O	RT-N137Q	nucleotide incorporation / radiometric	0.66 µM
CCOc1ccccc1N1CCN(C(=O)c2cc3cc4c(cc3[nH]2)OCO4)CC1	RT-Y181C P236L	-	>50 µM
C#C[C@@]1(COP(=O)(O)OP(=O)(O)OP(=O)(O)O)CC[C@H](n2ccc(N)nc2=O)O1	-	nucleotide incorporation / radiometric	0.05 µM
Cc1c(Sc2ccccc2)n(COCCO)c(=O)[nH]c1=O	RT-K103N Y181I	-	>5 µM
CC(C)=CCN1Cc2cccc3[nH]c(=S)n(c23)C[C@@H]1C	RT-E138K(P51 ONLY)	-	0.76 µM
Cc1cn([C@@H]2O[C@H](CO[Si](C)(C)C(C)(C)C)C3(OS(=O)(=O)C=C3N)[C@H]2O[Si](C)(C)C(C)(C)C)c(=O)n(C)c1=O	RT-V106A P225H	RT activity	>500 µM
CC(C)Nc1cccnc1N1CCN(C(=O)c2cc3ccccc3[nH]2)CC1	RT-V106A	nucleotide incorporation	9.1 µM
Nc1ccn([C@H]2CC[C@@H](COP(=O)(O)OP(=O)(O)OP(=O)(O)O)O2)c(=O)n1	RT-K65R	-	23.4 µM
CC(C)=CCN1Cc2cccc3[nH]c(=S)n(c23)C[C@@H]1C	RT-V90A	RT activity	0.6 µM
CCNc1cccnc1N1CCN(C(=O)c2cc3cc4c(cc3[nH]2)OCO4)CC1	RT-Y181C P236L	-	>50 µM
Cc1cn([C@@H]2O[C@H](CO[Si](C)(C)C(C)(C)C)C3(OS(=O)(=O)C=C3N)[C@H]2O[Si](C)(C)C(C)(C)C)c(=O)n(C)c1=O	RT-E138K(P51 ONLY)	-	>100 µM
CC(=O)c1ccc(C)cc1NC(C(N)=O)c1c(Cl)cccc1Cl	RT-V106A P225H	RT activity	15 µM
C[C@H](Cn1cnc2c(N)ncnc21)OCP(=O)(O)OP(=O)(O)OP(=O)(O)O	-	-	0.45 µM
CCc1c([Se]c2ccccn2)n(COCc2ccccc2)c(=O)[nH]c1=O	RT-V90A	RT activity	0.07 µM

The last 3 rows once more:

compound,changes,read by,value
CC(=O)c1ccc(C)cc1NC(C(N)=O)c1c(Cl)cccc1Cl,RT-V106A P225H,RT activity,15 µM
C[C@H](Cn1cnc2c(N)ncnc21)OCP(=O)(O)OP(=O)(O)OP(=O)(O)O,-,-,0.45 µM
CCc1c([Se]c2ccccn2)n(COCc2ccccc2)c(=O)[nH]c1=O,RT-V90A,RT activity,0.07 µM

Blank or dashed fields: not listed here. Neighbouring rows are from separate reports.